Data taken from patent publication US20150299276A1, “α-conotoxin peptide, pharmaceutical composition and use thereof” (published 2015).

Tests used:
[1] = target: rat α7 nAChR (rat), Q05941; experiment: cell-based or functional assay
[2] = target: human α6/α3β2β3 nAChR (human), P17787; experiment: cell-based or functional assay

Question: Which results are given for GCCSHPACNVDHPEIC (modifications not checked) [α-conotoxin LvIA/LvD21]?
Answer: IC50 (half-blocking dose) of ACh-gated current, Xenopus oocytes [1]: 3 µM; IC50 (half-blocking dose) of ACh-gated current, Xenopus oocytes [2]: 5.34 µM
